Anti-infective test results gathered from many reports (values: NIAID ChemDB through PubChem).

Common to all: tests in culture; agent: HIV-1

Rows are shuffled and stem from different studies. Blank or dashed fields: not listed here. ECn: concentration that inhibits the pathogen or its effect by n%.

compound	measure	strain	cells	read by	mutations	value
CCOC(=O)c1cccc(NC(=O)Nc2cccc3c(C(=O)C(=O)N4CCC(=C(C#N)c5ccccc5)CC4)c[nH]c23)c1	EC50	-	HeLa	luciferase / reporter gene	-	<1 µM
O=C1Nc2ccc(F)c(F)c2[C@@](/C=C/C2CC2)(C(F)(F)F)N1	EC90	-	-	-	RT-K101E	<0.012 µM
CCc1ccc(-c2c(C(Oc3ccccc3)C(=O)O)c(C)nc3ccc(Cl)cc23)cc1	EC50	-	C8166	luciferase / reporter gene	-	<20 µM
Cc1cc(C)cc(C(=O)c2cc(Cl)ccc2OCC(=O)Nc2ccc(S(N)(=O)=O)cc2C)c1	EC50	HXB2 (RT-K103N Y181C) Recombinant	HeLa + HELA CD4+	β-galactosidase	RT-K103N Y181C	<0.01 µM
Cc1ncc(-c2cnc(OCCNC(C)(C)C)c(F)c2)c(N2CCC(C)(C)CC2)c1[C@H](OC(C)(C)C)C(=O)O	EC50	NL4-3	MT-2	luminescence	-	0.0154 µM
C=C(c1ccc(C)cc1)c1c(C)c(=O)[nH]c(=O)n1COCc1ccccc1	EC50	IIIB	MT-4	MTT	-	64.66 µM
CC(C)=CCOc1cc(NC(=S)c2ccoc2C)ccc1Cl	EC50	WEJO	PBMC	cytopathic effect / XTT	-	<0.007 µM
Cc1ncc(-c2cnc(OCCC3CCCC3)c(F)c2)c(N2CCC(C)(C)CC2)c1[C@H](OC(C)(C)C)C(=O)O	EC50	NL4-3	MT-2	luminescence	-	0.0066 µM
COC[C@@H](c1ccc(C(F)(F)F)cc1)N1CCN(C2(C)CCN(C(=O)c3c(C)ncnc3C)CC2)C[C@@H]1C	EC50	R14/S	PBMC	-	M518V F519L V535M	0.00019 µM
Cc1ccc(-c2c(C(OCc3cc(C)on3)C(=O)O)c(C)nc3ccc(Br)cc23)cc1	EC50	-	C8166	luciferase / reporter gene	-	<20 µM
O=C1Nc2ccc(F)c(F)c2[C@@](C#CC2CC2)(C(F)(F)F)N1	EC90	-	-	-	RT-L100I	0.007 µM
CCOC(=O)c1ccc(NC(=O)Nc2cccc3c(C(=O)C(=O)N4CCC(=C(C#N)c5ccccc5)CC4)c[nH]c23)cc1	EC50	-	HeLa	luciferase / reporter gene	-	<1 µM
CC(C)=CCN1Cc2cccc3[nH]c(=O)n(c23)CC1C	EC50	UC040-R (RT-Y181C)	CEM + CEM-SS	cytopathic effect / XTT	RT-Y181C	2 µM
Cc1c(C(C)c2cccc(F)c2)n(COCc2ccccc2)c(=O)[nH]c1=O	EC50	IIIB	MT-4	MTT	-	>339.3 µM
Cc1cc(S(N)(=O)=O)ccc1NC(=O)COc1ccc(Cl)cc1C(=O)c1cccc(C#N)c1	EC50	HXB2	HeLa + HELA CD4+	β-galactosidase	RT-P225H	<0.01 µM
C[C@@H]1CN(C(=O)c2ccccc2)CCN1C(=O)C(=O)c1c[nH]c2c(NC(=O)C(O)C(N)C(=O)O)cccc12	EC50	-	HeLa	luciferase / reporter gene	-	<1 µM
COc1cc(Cl)ccc1OCCN(C)c1ccc(-c2cnc(C)c([C@H](OC(C)(C)C)C(=O)O)c2N2CCC(C)(C)CC2)nc1	EC50	NL4-3	MT-2	luminescence	-	0.0016 µM
Cc1cc(OCCCS(N)(=O)=O)ccc1NC(=O)COc1ccc(Cl)cc1C(=O)c1cc(F)cc(C(F)(F)F)c1	EC50	WTRVA	HeLa + HELA CD4+	β-galactosidase	-	<0.01 µM
CC(C)CN(C[C@@H](O)[C@H](Cc1ccccc1)NC(=O)O[C@H]1CCOC1)S(=O)(=O)c1ccc(N)cc1	EC50	T13717	MT-4	reporter gene	V32I I50V L76V G73S V82I	30000 nM
CCCC(C(=O)O)c1c(-c2ccc(Cl)cc2)c2cc(Cl)ccc2n(CC)c1=O	EC50	-	C8166	luciferase / reporter gene	-	<20 µM
Cc1cc(S(N)(=O)=O)ccc1NC(=O)COc1ccc(Cl)cc1C(=O)c1cc(F)cc(C(F)(F)F)c1	EC50	HXB2	HeLa + HELA CD4+	β-galactosidase	RT-K103N P225H	<0.01 µM
Cc1cc(C)c(CS(=O)c2cccc[n+]2[O-])c(C)c1	EC50	IIIB	CEM	syncytia	-	2.4 µg/mL
Cc1cc(C#N)cc(C(=O)c2cc(Cl)ccc2OCC(=O)Nc2cnc(S(N)(=O)=O)cc2C)c1	EC50	HXB2	HeLa + HELA CD4+	β-galactosidase	RT-K103N	<0.01 µM
Cc1cccc(C(C)c2c(C(C)C)c(=O)[nH]c(=O)n2COCc2ccccc2)c1	EC50	IIIB	MT-4	MTT	K103N	4.33 µM
CC(C)=CCOc1cc(NC(=S)c2ccsc2C)ccc1Cl	EC50	NL4-3 (RT Y181C)	CEM + CEM-SS	cytopathic effect / XTT	RT-Y181C	0.03 µM
O=S(=O)(Cc1c(Cl)c(Cl)c(Cl)c(Cl)c1Cl)c1cccc[n+]1[O-]	EC50	IIIB	MAGI	β-galactosidase	-	0.5 µg/mL
Cc1cc(S(N)(=O)=O)ccc1NC(=O)COc1ccc(Cl)cc1C(=O)c1cccc(C#N)n1	EC50	HXB2	HeLa + HELA CD4+	β-galactosidase	RT-Y181C	<0.01 µM
CC(C)N=C(Nc1cccc2c(C(=O)C(=O)N3CCN(C(=O)c4ccccc4)C[C@H]3C)c[nH]c12)NC(C)C	EC50	-	HeLa	luciferase / reporter gene	-	<1 µM
C[C@@H]1CCO[C@H]2Cn3cc(C(=O)NCc4ccc(F)cc4F)c(=O)c(O)c3C(=O)N12	EC50	-	TZM-bl	luciferase / luminescence	L74F	0.0011 µM
Cc1cccc(-c2c(C(OC(C)C)C(=O)O)c(C)nc3ccc(Cl)cc23)c1	EC50	-	C8166	luciferase / reporter gene	-	<20 µM
Cc1ncc(-c2ccc(OC3CC(C)C3)cn2)c(N2CCC(C)(C)CC2)c1[C@H](OC(C)(C)C)C(=O)O	EC50	NL4-3	MT-2	luminescence	-	0.005 µM
C=C(C)COC(C(=O)O)c1c(C)nc2ccc(Br)cc2c1-c1ccc(Cl)cc1	EC50	-	C8166	luciferase / reporter gene	-	<20 µM
O=S(=O)(Cc1ccccc1I)c1cccc[n+]1[O-]	EC50	IIIB	CEM/MOLT-4 + CEM	syncytia	-	>20 µg/mL
CC1(C)CC=C(c2cn(-c3nccc(C(=O)NC4CCC(N5CC6CCC(C5)O6)CC4)n3)c3ccc(F)c([C@H](OC(C)(C)C)C(=O)O)c23)CC1	EC50	NL4-3	MT-4	luminescence	V165I	0.005 µM
CCC(c1ccccc1OC)c1c(C)c(=O)[nH]c(=O)n1COCc1ccccc1	EC50	IIIB	MT-4	MTT	-	>32.35 µM
Cc1cc(S(N)(=O)=O)ccc1NC(=O)COc1ccc(Cl)cc1C(=O)c1cc(F)cc(C#N)c1	EC50	HXB2	HeLa + HELA CD4+	β-galactosidase	RT-V106A Y181C	<0.01 µM
Cc1nc2ccccc2c(-c2cc(F)c3c(c2C)CCCO3)c1[C@H](OC(C)(C)C)C(=O)O	EC50	NL4-3	MT-4	luminescence	T124N	0.021 µM
Cc1cc(C#N)cc(C(=O)c2cc(Cl)ccc2OCC(=O)Nc2ccc(S(N)(=O)=O)cc2C)c1	EC50	HXB2	HeLa + HELA CD4+	β-galactosidase	RT-K103N P225H	<0.01 µM
COCCCOc1ncc(-c2cnc(C)c([C@H](OC(C)(C)C)C(=O)O)c2N2CCC(C)(C)CC2)cc1F	EC50	NL4-3	MT-2	luminescence	-	0.0022 µM
N=C1Sc2ccccc2C2=NCCCN12	EC50	93BR021	PBMC	β-galactosidase	-	0.6 µM
Cc1nc2ccccc2c(-c2ccc(Cl)cc2)c1[C@H](OC(C)(C)C)C(=O)O	EC50	-	C8166	luciferase / reporter gene	-	<20 µM
Cc1cc(C#N)cc(C(=O)c2cc(Cl)ccc2OCC(=O)Nc2ccc(OCCCN3CC=CC3)cc2C)c1	EC50	HXB2	HeLa + HELA CD4+	β-galactosidase	RT-L100I	<0.01 µM
C=C(C)CC(C(=O)O)c1c(-c2ccc(Cl)cc2)c2cc(Br)ccc2oc1=O	EC50	-	C8166	luciferase / reporter gene	-	<20 µM
Cc1ccc(OCCOc2ccc(-c3cnc(C)c([C@H](OC(C)(C)C)C(=O)O)c3N3CCC(C)(C)CC3)nc2)cc1F	EC50	NL4-3	MT-2	luminescence	-	0.0012 µM

Repeating the first 2 entries:

{"compound": "CCOC(=O)c1cccc(NC(=O)Nc2cccc3c(C(=O)C(=O)N4CCC(=C(C#N)c5ccccc5)CC4)c[nH]c23)c1", "measure": "EC50", "cells": "HeLa", "read by": "luciferase / reporter gene", "value": "<1 µM"}
{"compound": "O=C1Nc2ccc(F)c(F)c2[C@@](/C=C/C2CC2)(C(F)(F)F)N1", "measure": "EC90", "mutations": "RT-K101E", "value": "<0.012 µM"}